Test results: ChEMBL document CHEMBL1275243 (2010)

Key:
Bacillus anthracis [1] = test: Antimicrobial activity against Bacillus anthracis 240 assessed as change in fluorescence threshold cycle at 8 ug/ml after 4 hrs by real-time PCR viability assay relative to control
Bacillus anthracis [2] = test: Antimicrobial activity against Bacillus anthracis 240 assessed as change in fluorescence threshold cycle at 16 ug/ml after 4 hrs by real-time PCR viability assay relative to control
Bacillus anthracis [3] = test: Antimicrobial activity against Bacillus anthracis A0293 assessed as change in fluorescence threshold cycle at 8 ug/ml after 4 hrs by real-time PCR viability assay relative to control
Bacillus anthracis [4] = test: Antimicrobial activity against Bacillus anthracis A0264 assessed as change in fluorescence threshold cycle at 8 ug/ml after 4 hrs by real-time PCR viability assay relative to control
Bacillus anthracis [5] = test: Antimicrobial activity against Bacillus anthracis A0419 assessed as change in fluorescence threshold cycle at 8 ug/ml after 4 hrs by real-time PCR viability assay relative to control
Bacillus anthracis [6] = test: Antimicrobial activity against Bacillus anthracis A0248 assessed as change in fluorescence threshold cycle at 8 ug/ml after 4 hrs by real-time PCR viability assay relative to control
Bacillus anthracis [7] = test: Antimicrobial activity against Bacillus anthracis A0102 assessed as change in fluorescence threshold cycle at 8 ug/ml after 4 hrs by real-time PCR viability assay relative to control
Bacillus anthracis [8] = test: Antimicrobial activity against Bacillus anthracis A0102 assessed as change in fluorescence threshold cycle at 1 ug/ml after 4 hrs by real-time PCR viability assay relative to control
Bacillus anthracis [9] = test: Antimicrobial activity against Bacillus anthracis A0149 assessed as change in fluorescence threshold cycle at 2 ug/ml after 4 hrs by real-time PCR viability assay relative to control
Bacillus anthracis [10] = test: Antimicrobial activity against Bacillus anthracis A0264 assessed as change in fluorescence threshold cycle at 2 ug/ml after 4 hrs by real-time PCR viability assay relative to control
Bacillus anthracis [11] = test: Antimicrobial activity against Bacillus anthracis A0193 assessed as change in fluorescence threshold cycle at 4 ug/ml after 4 hrs by real-time PCR viability assay relative to control
Bacillus anthracis [12] = test: Antimicrobial activity against Bacillus anthracis A0293 assessed as change in fluorescence threshold cycle at 16 ug/ml after 4 hrs by real-time PCR viability assay relative to control
Bacillus anthracis [13] = test: Antimicrobial activity against Bacillus anthracis A0462 assessed as change in fluorescence threshold cycle at 16 ug/ml after 4 hrs by real-time PCR viability assay relative to control
Bacillus anthracis [14] = test: Antimicrobial activity against Bacillus anthracis A0248 assessed as change in fluorescence threshold cycle at 0.5 ug/ml after 4 hrs by real-time PCR viability assay relative to control
Bacillus anthracis [15] = test: Antimicrobial activity against Bacillus anthracis A0488 assessed as change in fluorescence threshold cycle at 0.5 ug/ml after 4 hrs by real-time PCR viability assay relative to control
Bacillus anthracis [16] = test: Antimicrobial activity against Bacillus anthracis A0465 assessed as change in fluorescence threshold cycle at 0.12 ug/ml after 4 hrs by real-time PCR viability assay relative to control
Bacillus anthracis [17] = test: Antimicrobial activity against Bacillus anthracis A0193 assessed as change in fluorescence threshold cycle at 0.25 ug/ml after 4 hrs by real-time PCR viability assay relative to control
Bacillus anthracis [18] = test: Antimicrobial activity against Bacillus anthracis A0419 assessed as change in fluorescence threshold cycle at 0.25 ug/ml after 4 hrs by real-time PCR viability assay relative to control
Bacillus anthracis [19] = test: Antimicrobial activity against Bacillus anthracis A0188 assessed as change in fluorescence threshold cycle at 0.25 ug/ml after 4 hrs by real-time PCR viability assay relative to control
Bacillus anthracis [20] = test: Antimicrobial activity against Bacillus anthracis A0248 assessed as change in fluorescence threshold cycle at 0.25 ug/ml after 4 hrs by real-time PCR viability assay relative to control
Bacillus anthracis [21] = test: Antimicrobial activity against Bacillus anthracis A0293 assessed as change in fluorescence threshold cycle at 0.06 ug/ml after 4 hrs by real-time PCR viability assay relative to control
Bacillus anthracis [22] = test: Antimicrobial activity against Bacillus anthracis A0419 assessed as change in fluorescence threshold cycle at 0.06 ug/ml after 4 hrs by real-time PCR viability assay relative to control
Bacillus anthracis [23] = test: Antimicrobial activity against Bacillus anthracis A0188 assessed as change in fluorescence threshold cycle at 0.06 ug/ml after 4 hrs by real-time PCR viability assay relative to control
Bacillus anthracis [24] = test: Antimicrobial activity against Bacillus anthracis A0248 assessed as change in fluorescence threshold cycle at 0.06 ug/ml after 4 hrs by real-time PCR viability assay relative to control
Bacillus anthracis [25] = test: Antimicrobial activity against Bacillus anthracis A0488 assessed as change in fluorescence threshold cycle at 0.06 ug/ml after 4 hrs by real-time PCR viability assay relative to control
Bacillus anthracis [26] = test: Antimicrobial activity against Bacillus anthracis A0193 assessed as change in fluorescence threshold cycle at 0.12 ug/ml after 4 hrs by real-time PCR viability assay relative to control
Bacillus anthracis [27] = test: Antimicrobial activity against Bacillus anthracis A0419 assessed as change in fluorescence threshold cycle at 0.12 ug/ml after 4 hrs by real-time PCR viability assay relative to control
Bacillus anthracis [28] = test: Antimicrobial activity against Bacillus anthracis A0248 assessed as change in fluorescence threshold cycle at 0.12 ug/ml after 4 hrs by real-time PCR viability assay relative to control
Bacillus anthracis [29] = test: Antimicrobial activity against Bacillus anthracis A03768 assessed as change in fluorescence threshold cycle at 0.06 ug/ml after 4 hrs by real-time PCR viability assay relative to control

| Structure (SMILES) | deltaCT (Bacillus anthracis [1]) | deltaCT (Bacillus anthracis [2]) | deltaCT (Bacillus anthracis [3]) | deltaCT (Bacillus anthracis [4]) | deltaCT (Bacillus anthracis [5]) | deltaCT (Bacillus anthracis [6]) | deltaCT (Bacillus anthracis [7]) | deltaCT (Bacillus anthracis [8]) | deltaCT (Bacillus anthracis [9]) | deltaCT (Bacillus anthracis [10]) | deltaCT (Bacillus anthracis [11]) | deltaCT (Bacillus anthracis [12]) | deltaCT (Bacillus anthracis [13]) | deltaCT (Bacillus anthracis [14]) | deltaCT (Bacillus anthracis [15]) | deltaCT (Bacillus anthracis [16]) | deltaCT (Bacillus anthracis [17]) | deltaCT (Bacillus anthracis [18]) | deltaCT (Bacillus anthracis [19]) | deltaCT (Bacillus anthracis [20]) | other results |
| --- | --- | --- | --- | --- | --- | --- | --- | --- | --- | --- | --- | --- | --- | --- | --- | --- | --- | --- | --- | --- | --- |
| O=C(O)c1cn(C2CC2)c2cc(N3CCNCC3)c(F)cc2c1=O [CIPROFLOXACIN] | 0.81 | 8.73 | 7.86 | 0.43 | 0.22 | 0.2 | 0.97 | 7.98 | 7.27 | 7.34 | 1.99 | 7.48 | 1.97 | 0.53 | 2.19 | 6.73 | 8.15 | 0.44 | 0.87 | 7.21 | deltaCT (Bacillus anthracis [21]): 7.63; deltaCT (Bacillus anthracis [22]): 8.54; deltaCT (Bacillus anthracis [23]): 8.17; deltaCT (Bacillus anthracis [24]): 1.52; deltaCT (Bacillus anthracis [25]): 2.72; deltaCT (Bacillus anthracis [26]): 0.59; deltaCT (Bacillus anthracis [27]): 7.59; deltaCT (Bacillus anthracis [28]): 8.09; deltaCT (Bacillus anthracis [29]): 7.37 |
| C[C@H]1c2cccc(O)c2C(=O)C2=C(O)[C@]3(O)C(=O)C(C(N)=O)=C(O)[C@@H](N(C)C)[C@@H]3[C@@H](O)[C@@H]21.O [DOXYCYCLINE] | 7.86 | 0.82 | 8.39 | 8.22 | 8.44 | 7.58 | 7.72 | 7.22 | 8.53 | 8.79 | 8.64 | 2.46 | 8 | 7.52 | 8.18 | 6.59 | 6.56 | 5.09 | 5.16 | 6.6 | deltaCT (Bacillus anthracis [21]): 7.6; deltaCT (Bacillus anthracis [22]): 7.11; deltaCT (Bacillus anthracis [23]): 7.22; deltaCT (Bacillus anthracis [24]): 7.97; deltaCT (Bacillus anthracis [25]): 8.73; deltaCT (Bacillus anthracis [26]): 8.16; deltaCT (Bacillus anthracis [27]): 6.94; deltaCT (Bacillus anthracis [28]): 6.95; deltaCT (Bacillus anthracis [29]): 7.2 |
